*1 amine or outer side, *2 acyl side, *3 side chain or, on linkers, in order; H or OH if unused. Where a SMILES comes first, the peptide text is derived from it. [ ]: non-standard residue; d: D form. The star is where a group is joined. Fmoc = O=C(OCC1c2ccccc2-c2ccccc21)*; X1 = O=C(C(N[*:1])Sc1ccccc1)[*:2]
tested on: HIV-1 Bru; assay type: cell-based; details: therapeutic index, MT4 cells

Compound | TI (ID50/IC50)
CC[C@H](C)[C@H](N)C(=O)N[C@@H](CCCNC(=N)N)C(=O)N[C@@H](CCCCN)C(=O)N[C@H](C(=O)N[C@@H](CC(C)C)C(=O)NC(Sc1ccccc1)C(=O)N[C@@H](CC(C)C)C(=O)N[C@@H](CC(=O)O)C(=O)NCC(=O)N[C@H](C(=O)O)[C@@H](C)CC)[C@@H](C)CC (stereo partly drawn) [Compound 11, Ile-Arg-Lys-Ile-Leu-(S)Phe-Leu-Asp-Gly-Ile-OH] (H-IRKIL[X1]LDGI-OH) | 10
CC[C@H](C)[C@H](N)C(=O)N[C@@H](CCCNC(=N)N)C(=O)N[C@@H](CCCCN)C(=O)N[C@H](C(=O)N[C@@H](CC(C)C)C(=O)NC(Sc1ccccc1)C(=O)N[C@@H](CC(C)C)C(=O)N[C@@H](CC(=O)O)C(=O)NCC(N)=O)[C@@H](C)CC (stereo partly drawn) [Compound 9, Ile-Arg-Lys-Ile-Leu-(S)Phe-Leu-Asp-Gly-NH2] (H-IRKIL[X1]LDG-NH2) | 50
CC[C@H](C)[C@H](NC(=O)CNC(=O)[C@H](CC(=O)O)NC(=O)[C@H](CC(C)C)NC(=O)C(NC(=O)[C@H](CC(C)C)NC(=O)[C@@H](NC(=O)[C@H](CCCCN)NC(=O)[C@H](CCCNC(=N)N)NC(=O)[C@@H](NC(=O)OCC1c2ccccc2-c2ccccc21)[C@@H](C)CC)[C@@H](C)CC)Sc1ccccc1)C(=O)O (stereo partly drawn) [Compound 10, Fmoc-Ile-Arg-Lys-Ile-Leu-(S)Phe-Leu-Asp-Gly-Ile-OH] (Fmoc-IRKIL[X1]LDGI-OH) | 10

From US5844078A, “Phenyl peptides, method for preparing same, and pharmaceutical compositions containing said peptides” (priority 1995, dated 1998)
